Experimental data published in article PMC9271885 (eBioMedicine, 2022).

System: SARS-CoV-2
Type: cell-based
Details: 3 and 4 dpi, NTZ concentrations above its EC50 (5, 10, 20µM)

In the case of `CC(=O)Oc1ccccc1C(=O)Nc1ncc([N+](=O)[O-])s1` [NTZ, Nitazoxanide], the “infectious titers vs untreated” value was “significant reduction of infectious titers”.
